Compound potency records, mixed from different reports. Data source: NIAID ChemDB in PubChem.

Common to all: growth or infection tests; agent: HIV-1; endpoint: inhibition

Rows are shuffled and stem from different studies. An empty or dashed field is not shown. Percent inhibition refers to the dose given; in toxicity tests it is the harm to the cells.

structure | read by | strain | dose | cell line | setting | mutations | result
N#CC[C@H](C1CCCC1)n1cc(-c2ncnc3[nH]ccc23)cn1 | p24 / ELISA | BaL | 3.1 µM | Macrophage | inside macrophages |  | 90%
Cc1cn([C@H]2C[C@H](N=[N+]=[N-])[C@@H](CO)O2)c(=O)[nH]c1=O | luciferase | NL4-3 Recombinant | 0.01 µM | Jurkat cells |  |  | 65%
CCCCCCCCOCCCCC(=O)O | p24 / RT activity | IIIB | 40 µM | H9 |  |  | 0%
O=c1[nH]cc(F)c(=O)[nH]1 | p24 | ERS104pre | 1 µM | PBMC |  |  | 23%
Cc1cn([C@H]2C[C@H](N=[N+]=[N-])[C@@H](CO)O2)c(=O)[nH]c1=O |  | RFII | 0.001 ng/mL | CEM + CEM-SS |  |  | 16%
C[C@H]1O[C@@H](O[C@H]2[C@@H](O)C[C@H](O[C@H]3[C@@H](O)C[C@H](O[C@H]4CC[C@@]5(C)[C@H](CC[C@@H]6[C@@H]5C[C@@H](O)[C@]5(C)[C@@H](C7=CC(=O)OC7)CC[C@]65O)C4)O[C@@H]3C)O[C@@H]2C)C[C@H](O)[C@@H]1O | p24 / ELISA | BaL | 0.025 µM | PBMC |  |  | 90%
CC[C@@]1(O)C(=O)OCc2c1cc1n(c2=O)Cc2cc3c([N+](=O)[O-])cccc3nc2-1 | p24 / ELISA | IIIB | 0.04 µM | U-937 |  |  | 80%
COc1cc(C[C@H]2C(=O)OC[C@@H]2Cc2ccc(OC)c(OC)c2)ccc1O | p24 | IIIB | 0.3 µg/mL | PBL |  |  | 90%
CCCCCCCN1C(=O)N(CCCCCCC)[C@H](Cc2ccccc2)[C@H](O)[C@@H](O)[C@H]1Cc1ccccc1 | hybridisation | RF | 96 µM | MT-2 |  |  | <90%
O=C(O)CCCCCCCCCCCF | cytopathic effect / XTT | IIIB | 63.2 µM | CEM + CEM-SS |  |  | 48.6%
CC(C)Nc1cccnc1N1CCN(C(=O)c2cc3ccccc3[nH]2)CC1 | MTT | Seropositive clinical isolate C | 1 µM | PBMC |  |  | 100%
CC(C)CCCCN1C(=O)N(CCCCC(C)C)[C@H](Cc2ccccc2)[C@H](O)[C@@H](O)[C@H]1Cc1ccccc1 | hybridisation | RF | 95 µM | MT-2 |  |  | <90%
OC[C@@H]1[C@@H](O)[C@H](O)[C@@H](O)CN1C/C=C/c1ccccc1 | cell fusion | IIIB | 40 µg/mL | MOLT-4 |  |  | 96%
O=c1oc2ccccc2c2c1C(c1ccccn1)c1c(c3ccccc3oc1=O)O2 | p24 / ELISA | 93IN101 | 100 µM | SupT1 |  |  | 20%
O=C(O)CCCCCCCCCCOc1ccccc1 | cytopathic effect / XTT | IIIB | 20 µM | CEM + CEM-SS |  |  | 9.4%
Nc1nc(Cl)nc2c1ncn2[C@H]1CC[C@@H](CO)O1 | p24 | LAV | 10 µM | CEM |  |  | 85%
Nc1nc(NC2CC2)c2ncn([C@H]3C=C[C@@H](CO)O3)c2n1 | cytopathic effect / MTT | BRU PITT.(RT-M184V) | 11 µM | PBMC |  | RT-M184V | 90%
CNCCC=C1c2ccccc2CCc2ccccc21 | p24 | IIIB | 5 µg/mL | MOLT-3 |  |  | 0%
COc1cc([C@H]2OC[C@H]3[C@@H]2CO[C@@H]3c2ccc3c(c2)OCO3)cc(OC)c1OC | p24 | IIIB | 10.6 µM | H9 |  |  | 85%
CC(C)C[C@H](NC(=O)[C@H](Cc1ccccc1)C[C@H](O)[C@H](Cc1ccccc1)NC(=O)OC(C)(C)C)C(=O)N[C@@H](Cc1ccccc1)C(N)=O | p24 | IIIB | 6 µM | MT-4 |  |  | 95%
CC[C@H](CO)Nc1nc(NCc2ccc(-c3ccccn3)cc2)[n+]2[nH]cc(C(C)C)c2n1 | luciferase |  | 0.05 µM | U1 |  |  | <25%
CCN(C(=O)OCc1ccccc1)C1CCN(CCC(CN(C)S(=O)(=O)c2ccccc2)c2ccccc2)CC1 | p24 | YU-2 (M-tropic) | 12.5 µM | PBMC |  |  | 95%
CC(C)=CCN1c2cc(Cl)cc3[nH]c(=S)n(c23)C[C@@H]1C |  | WT | 0.1 µM | MT-4 |  |  | 95%
O=C1Nc2ccc(Cl)cc2[C@@](C#CC2CC2)(C(F)(F)F)O1 | luciferase |  | 30 µM | SupT1 | pseudotyped |  | 99.9%
Cc1cn([C@H]2C[C@H](N=[N+]=[N-])[C@@H](CO)O2)c(=O)[nH]c1=O | p24 | JR-CSF | 0.003 µM | PBMC |  |  | 76.5%
Cc1cn([C@H]2C[C@H](OC=O)[C@@H](CO)O2)c(=O)[nH]c1=O | cytopathic effect |  | 20 µM | CEM |  |  | 30%
CCCCCN1CC[C@H](c2ccc(F)cc2)[C@@H](COc2ccc3c(c2)OCCO3)C1 | syncytia | IIIB | 4 µg/mL | MOLT-3 |  |  | 20%
CCCCN1C[C@H](O)[C@@H](O)[C@H](O)[C@H]1CO | p24 |  | 2000 µM | H9 |  |  | 88%
c1cc(CN2CCCNCCNCCCNCC2)ccc1CN1CCCNCCNCCCNCC1 | p24 | HE R5X4 | 0.1 µM | U87 (CD4+ CCR5+) + U87 |  |  | 5%
CCCCCCN1C(=O)N(CCCCCC)[C@H](Cc2ccccc2)[C@H](O)[C@@H](O)[C@H]1Cc1ccccc1 | hybridisation | RF | 102 µM | MT-2 |  |  | <90%
COc1cc(O)c2c(=O)oc3cc(O)cc(C)c3c2c1 | luciferase | NL4-3 | 60 µM | MT-2 | pseudotyped |  | 88%
O=c1oc2ccccc2c(O)c1N=Nc1ccc(-c2nnc(Sc3ccccc3)o2)cc1 | p24 / ELISA | NL4-3 | 100 µM | HeLa |  |  | 6%
O=C(O)CCCCCCCCCCCOc1ccccc1 | cytopathic effect / XTT | IIIB | 20 µM | CEM + CEM-SS |  |  | 18%
COC(=O)[C@H](C)NP(=O)(OC[C@@H]1O[C@H](n2ccc(N)nc2=O)CS1)Oc1ccccc1 | cytopathic effect | IIIB | 10 µM | CEM | 7 d |  | 100%
CC(C)CCCCCN1C(=O)N(CCCCCC(C)C)[C@H](Cc2ccccc2)[C@H](O)[C@@H](O)[C@H]1Cc1ccccc1 | hybridisation | RF | 18 µM | MT-2 |  |  | <90%
CC(C)=CCOc1cc(NC(=S)c2ccoc2C)ccc1Cl | p24 | 92US657 Clinical isolate | 0.01422 µg/mL | PBMC |  |  | 95%
COc1cc(C[C@@]2(O)C(=O)OC[C@@H]2Cc2ccc(OC)c(OC)c2)ccc1O | XTT | IIIB | 0.3 µg/mL | MT-2 |  |  | 67%
CN1C(=O)N(C)[C@H](Cc2ccccc2)[C@H](O)[C@@H](O)[C@H]1Cc1ccccc1 | hybridisation | RF | 141 µM | MT-2 |  |  | <90%
O=C(O)CCOCCCCCCCCCl | cytopathic effect / XTT | IIIB | 6.3 µM | CEM + CEM-SS |  |  | 7%
O=C(Nc1cc(S(=O)(=O)O)cc2cc(S(=O)(=O)O)c(N=Nc3ccc(N=Nc4c(S(=O)(=O)O)cc5cc(S(=O)(=O)O)cc(NC(=O)c6cccc(Cl)c6Cl)c5c4O)cc3)c(O)c12)c1ccc(Cl)cc1Cl |  | SF162 | 0.79 µg/mL | PBMC |  |  | 90%
Cn1c(=O)n(-c2ccc(C(C)(C)C#N)cc2)c2c3cc(-c4cnc5ccccc5c4)ccc3ncc21 | p24 / ELISA |  | 0.025 µM | Macrophage |  |  | 83%
Fc1ccc([C@H]2CCNC[C@@H]2COc2ccc3c(c2)OCCO3)cc1 | syncytia | IIIB | 4 µg/mL | MOLT-3 |  |  | 12%
CCOC(=O)[C@H](CS)NC(=O)CC[C@H](N)C(=O)O | p24 | IIIB | 800 µM | H9(HIV-1(IIIB)) + H9 |  |  | 80%
CCCCCN1CC[C@@H](c2ccc(F)cc2)[C@H](COc2ccc3c(c2)OCCO3)C1 | p24 | IIIB | 4 µg/mL | MOLT-3 |  |  | 17%
O=C(CO)N[C@@H]([C@@H](O)[C@H](O)[C@H](O)CO)[C@@H](O)C(=O)C(=O)O | p24 | MN | 6.2 µg/mL | PBMC |  |  | 99.9%
Cn1cnc2c(NCc3ccccc3)nc(NCCO)nc21 | p24 | THA/92/00 NSI CLADE E | 10 µM | PBMC |  |  | 10%
COc1ccc(OC[C@H]2CN(C)CC[C@@H]2c2ccccc2)cc1 | syncytia | IIIB | 4 µg/mL | MOLT-3 |  |  | 20%
Cc1c(N)nc([C@H](CC(N)=O)NC[C@H](N)C(N)=O)nc1C(=O)N[C@H](C(=O)N[C@H](C)[C@@H](O)[C@H](C)C(=O)N[C@H](C(=O)NCCc1nc(-c2nc(C(=O)NCCC[S+](C)C)cs2)cs1)[C@@H](C)O)C(O[C@@H]1O[C@@H](CO)[C@@H](O)[C@H](O)[C@@H]1O[C@H]1O[C@H](CO)[C@@H](O)[C@H](OC(N)=O)[C@@H]1O)c1cnc[nH]1 | p24 | BaL | 0.7 µM | PBMC |  |  | 22%
COCCOCCN1C(=O)N(CCOCCOC)[C@H](Cc2ccccc2)[C@H](O)[C@@H](O)[C@H]1Cc1ccccc1 | hybridisation | RF | 94 µM | MT-2 |  |  | <90%
Cc1cn([C@H]2C[C@H](N=[N+]=[N-])[C@@H](CO)O2)c(=O)[nH]c1=O | p24 | BaL | 0.1 µM | Macrophage + Monocytes/macrophages |  |  | 87%
Nc1ccn([C@@H]2C=C[C@@H](CO)[C@H](CO)C2)c(=O)n1 | p24 / antigen |  | 10 nM | PBMC |  |  | 65%
COc1cc(C[C@@]2(O)C(=O)OC[C@@H]2Cc2ccc(OC)c(OC)c2)ccc1O | syncytia | IIIB | 0.52 µM | H9 |  |  | 23%
NCCCCCCCCCCC(=O)O | cytopathic effect / XTT | IIIB | 0.6 µM | CEM + CEM-SS |  |  | 18.9%
CCCCC[C@H](O)/C=C/[C@H]1C=CC(=O)[C@@H]1C/C=C\CCCC(=O)O | syncytia | IIIB | 20 µM | C8166 |  |  | 99%
CC(C)[n+]1c[nH]c2c(NCc3ccc(-c4ccccn4)cc3)nc(NC[C@H](O)CO)nc21 | luciferase |  | 0.05 µM | U1 |  |  | <25%
C#Cc1c(C(N)=O)ncn1[C@@H]1O[C@H](CO)[C@@H](O)[C@H]1O | p24 | IIIB | 0.5 µM | PBL |  |  | 0%
COc1ccc(C[C@H]2COC(=O)[C@@H]2Cc2ccc(O[C@@H]3O[C@H](CO)[C@@H](O)[C@H](O)[C@H]3O)c(OC)c2)cc1OC | syncytia | IIIB | 5 µM | H9 |  |  | 93%
COc1ccc(CN[C@@H](C(=O)N[C@H]2c3ccccc3C[C@H]2O)[C@H](O)[C@H](Cc2ccccc2)NC(=O)[C@@H](NC(=O)OCc2ccccc2)C(C)(C)C)cc1 | p24 | SF162 | 0.32 µM | Primary monocytes + Monocyte |  |  | 90%
OCCN1CCN(CC/C=C2\c3ccccc3Sc3ccc(C(F)(F)F)cc32)CC1 | p24 | IIIB | 10 µg/mL | MOLT-3 |  |  | 67%
Cc1cn([C@H]2C[C@H](N=[N+]=[N-])[C@@H](CO)O2)c(=O)n(N)c1=O | p24 / RT activity | BRU | 2.5 µM | PBMC |  |  | 90%
O=Nc1c(-c2c(O)[nH]c3ccccc23)[nH]c2ccccc12 | RT activity | SF162 | 1 µM | MDM | 28 d |  | 57.6%
c1cc(CN2CCCNCCNCCCNCC2)ccc1CN1CCCNCCNCCCNCC1 | p24 | PCP1 CLADE C R5 CXCR6 | 0.1 µM | PBMC |  |  | 18%
Cc1cn([C@H]2C[C@H](F)[C@@H](CO)O2)c(=O)[nH]c1=O | cytopathic effect / trypan blue | IIIB | 0.02 µM | MT-4 |  |  | 90%
CC(=O)N[C@@H](CS)C(=O)O | MTT / p24 |  | 200 µM | U-937/HIV-1 + U-937 |  |  | 0%
COc1cc([C@@H]2c3cc4c(cc3[C@H](O)[C@H]3COC(=O)[C@H]23)OCO4)cc(OC)c1OC | p24 | IIIB | 0.007 µM | H9 |  |  | 89%
O=C(O)CCCCCCCCCCCBr | cytopathic effect / XTT | IIIB | 63.2 µM | CEM + CEM-SS |  |  | 78.6%
O=C(NCc1ccc(F)cc1)c1nc(N2CCCCS2(=O)=O)c2cccnc2c1O | p24 | IIIB | 0.015 µM | H9 |  |  | 95%
O=C(O)CCCCCCCCCCOc1ccc(I)cc1 | cytopathic effect / XTT | IIIB | 6.3 µM | CEM + CEM-SS |  |  | 6.5%
CCC[C@@]1(CCc2ccccc2)CC(O)=C([C@H](CC)c2cccc(NS(=O)(=O)c3ccc(C(F)(F)F)cn3)c2)C(=O)O1 | p24 | Isolate N. Amer 1 | 0.17 µM | PBMC |  |  | 90%
CC1(C)[C@@H](O[C@H]2O[C@H](C(=O)O)[C@@H](O)[C@H](O)[C@H]2O[C@@H]2O[C@H](C(=O)O)[C@@H](O)[C@H](O)[C@H]2O)CC[C@]2(C)[C@H]3C(=O)C=C4[C@@H]5C[C@@](C)(C(=O)O)CC[C@]5(C)CC[C@@]4(C)[C@]3(C)CC[C@@H]12 | ELISA | Clinical isolate GVK 4046 | 500 µg/mL | MT-4 |  |  | 94%
Cn1cc(C(=O)O)c(=O)c2cc(F)c(N3CC=C(c4ccccc4)CC3)c(C(F)(F)F)c21 | p24 | IIIB | 1.4 µM | MOLT-4/U1(HIV-1(IIIB)) + MOLT-4 |  |  | 90%
COc1ccc(C(=O)N2CCN(c3ccc4c(c3)CCC(=O)N4)CC2)cc1OC |  | JR-FL | 100 µg/mL | Macrophage |  |  | 80%